Anti-infective test results gathered from many reports (values: NIAID ChemDB through PubChem).

All rows: cytotoxicity tests; cell line: CEM; measure: CC50

CCn is the concentration with n% toxicity to the cells. Conditions beyond the fields shown may differ between rows. Blank or dashed fields: not listed here.

COc1cccc(/C=C2/CCCc3c2nc2ccccc2c3C(=O)OCC(=O)NC(N)=O)c1OC ; read by: propidium iodide ; result: >25 µM
O=c1[nH]cnc2c1ncn2[C@@H]1C[C@@H](F)[C@H](CO)O1 ; result: >100 µM
Cc1ccc2nc(Cl)c(/C=C/C(=O)c3sccc3Br)cc2c1 ; read by: MTS ; result: 31.6 µM
COCCNC(=O)COC(=O)c1c2c(nc3ccccc13)/C(=C\c1ccc(OC)cc1)CCC2 ; read by: propidium iodide ; result: >25 µM
O=C(Nc1cc(C(F)(F)F)cc(C(F)(F)F)c1)c1ccccc1SSc1ccccc1C(=O)Nc1cc(C(F)(F)F)cc(C(F)(F)F)c1 ; result: 3.6 µM
C=CNC(=O)COC(=O)c1c2c(nc3ccccc13)/C(=C\c1cccs1)CCC2 ; read by: propidium iodide ; result: 2 µM
CCc1c(Sc2ccccc2)n(COCc2ccccc2)c(=S)[nH]c1=O ; result: >100 µM
COc1ccc2nc(Cl)c(/C=C/C(=O)c3sccc3Br)cc2c1 ; read by: MTS ; result: 8.3 µM
NS(=O)(=O)c1ccc(NS(=O)(=O)c2ccccc2SSc2ccccc2S(=O)(=O)Nc2ccc(S(N)(=O)=O)cc2)cc1 ; result: >100 µM
O=C1NC(SC(SC2=NNC3(C(=O)N2)c2ccccc2-c2ccccc23)=C(SC2=NNC3(C(=O)N2)c2ccccc2-c2ccccc23)SC2=NNC3(C(=O)N2)c2ccccc2-c2ccccc23)=NNC12c1ccccc1-c1ccccc12 ; result: 79 µM
Cc1cc(C)cc(Sc2c(C(C)C)c(=O)[nH]c(=O)n2CCC2=CCCC2)c1 ; result: 23.9 µM
CCOCn1c(Sc2cc(C)cc(C)c2)c(CC)c(=O)[nH]c1=O ; result: >100 µM
Nc1nc2c(ncn2[C@@H]2C[C@@H](F)[C@H](CO)O2)c(=O)[nH]1 ; result: >100 µM
O=C1N=C2SC=C(NC(=S)Nc3ccccc3)N2NC12c1ccccc1-c1ccccc12 ; result: 66 µM
CC(C)(C)OC(=O)[C@H](CC(N)=O)NC(=O)c1ccccc1SSc1ccccc1C(=O)N[C@@H](CC(N)=O)C(=O)OC(C)(C)C ; result: >100 µM
COc1ccc2nc(Cl)c(/C=C/C(=O)c3cccc4ccccc34)cc2c1 ; read by: MTS ; result: 31.6 µM
CCc1c(C(=O)c2cc(C)cc(C)c2)n(CCC2CC=CC2)c(=O)[nH]c1=O ; result: 76.5 µM
CCc1c(Sc2cc(C)cc(C)c2)n(COCCO)c(=O)[nH]c1=O ; result: >100 µM
CC(C)CNC(=O)NC(=O)C(C)OC(=O)c1c2c(nc3ccccc13)/C(=C\c1cccc([N+](=O)[O-])c1)CCC2 ; result: >300 µM
COc1ccc2nc(Cl)c(/C=C/C(=O)c3ccc(I)s3)cc2c1 ; read by: MTS ; result: 71.6 µM
CCOCn1c(Cc2ccccc2)c(C(C)C)c(=O)[nH]c1=O ; result: >100 µM
Cc1csc(C(=O)/C=C/c2cc3cc(C)ccc3nc2Cl)c1 ; read by: MTS ; result: ≥100 µM
O=C(O)CSC1=NNC2(C(=O)N1)c1ccccc1-c1ccccc12 ; result: 55 µM
COc1ccc2nc(Cl)c(/C=C/C(=O)c3ccc(C)o3)cc2c1 ; read by: MTS ; result: 15.7 µM
Cc1cc(C)cc(Oc2c(C(C)C)c(=O)[nH]c(=O)n2CC2CCCC2)c1 ; result: 19.1 µM
COc1ccc2nc(Cl)c(/C=C/C(=O)c3ccc(Br)s3)cc2c1 ; read by: MTS ; result: 31.6 µM
Cc1cc(C)cc(Oc2c(C(C)C)c(=O)[nH]c(=O)n2CCC2C=CCC2)c1 ; result: 20.9 µM
O=C(O)C(SC1=NNC2(C(=O)N1)c1ccccc1-c1ccccc12)SC1=NNC2(C(=O)N1)c1ccccc1-c1ccccc12 ; result: 15 µM
CCc1c(Sc2cc(C)cc(C)c2)n(COCCO)c(=S)[nH]c1=O ; result: >100 µM
O=C(O)C[C@H](NC(=O)c1ccccc1SSc1ccccc1C(=O)N[C@@H](CC(=O)O)C(=O)O)C(=O)O ; result: >100 µM
NS(=O)(=O)c1ccc(NC(=O)c2ccccc2[N+](=O)[O-])cc1 ; result: >100 µM
COc1ccc2nc(Cl)c(/C=C/C(=O)c3ccc(C)s3)cc2c1 ; read by: MTS ; result: 14.7 µM
Nc1ncnc2c1ncn2[C@@H]1C[C@@H](F)[C@H](CO)O1 ; result: >100 µM
S=C1N=C(Cl)C2(NN1)c1ccccc1-c1ccccc12 ; result: 200 µM
CCNC(=O)NC(=O)C(C)OC(=O)c1c2c(nc3ccccc13)/C(=C\c1cccc([N+](=O)[O-])c1)CCC2 ; result: 16 µM
CCc1c(Oc2cc(C)cc(C)c2)n(CCC2=CCCC2)c(=O)[nH]c1=O ; result: >1120 µM
CCC(C)C(NC(=O)c1ccccc1SSc1ccccc1C(=O)NC(C(=O)O)C(C)CC)C(=O)O ; result: >120 µM
Cc1cc(C)cc(Oc2c(C(C)C)c(=O)[nH]c(=O)n2CCC2CC=CC2)c1 ; result: 18.2 µM
O=C(N[C@@H](CCc1ccccc1)C(=O)O)c1ccccc1SSc1ccccc1C(=O)N[C@@H](CCc1ccccc1)C(=O)O ; result: 68 µM
CCc1c(C(=O)c2cc(C)cc(C)c2)n(CCC2=CCCC2)c(=O)[nH]c1=O ; result: >1090 µM
CC(NC(=O)c1ccccc1SSc1ccccc1C(=O)NC(C)C(=O)O)C(=O)O ; result: >100 µM
O=C(Nc1ccc(F)cc1)c1ccccc1SSc1ccccc1C(=O)Nc1ccc(F)cc1 ; result: 14 µM
Cc1cc(C)cc(C(=O)c2c(C(C)C)c(=O)[nH]c(=O)n2CCC2CC=CC2)c1 ; result: 35.8 µM

For reference, 6 entries again:

smiles	read by	result
COc1ccc2nc(Cl)c(/C=C/C(=O)c3ccc(I)s3)cc2c1	MTS	71.6 µM
CC(C)(C)OC(=O)[C@H](CC(N)=O)NC(=O)c1ccccc1SSc1ccccc1C(=O)N[C@@H](CC(N)=O)C(=O)OC(C)(C)C		>100 µM
Nc1nc2c(ncn2[C@@H]2C[C@@H](F)[C@H](CO)O2)c(=O)[nH]1		>100 µM
O=C(O)CSC1=NNC2(C(=O)N1)c1ccccc1-c1ccccc12		55 µM
Cc1cc(C)cc(Sc2c(C(C)C)c(=O)[nH]c(=O)n2CCC2=CCCC2)c1		23.9 µM
O=C(O)C[C@H](NC(=O)c1ccccc1SSc1ccccc1C(=O)N[C@@H](CC(=O)O)C(=O)O)C(=O)O		>100 µM